From patent US10905739B2, “Peptidomimetic macrocycles and formulations thereof” (AILERON THERAPEUTICS, INC., priority 2014, dated 2021) come the findings set out here.

For this experiment, the system named is Influenza A Virus H1N1 California/07/2009. To be noted: for EC50: Virus California/07/2009.

For orientation: EC50 means the concentration giving half of the maximal effect. For `CCCC[C@H](NC(C)=O)C(=O)N[C@@H](CC(=O)O)C(=O)N[C@H](C(=O)N[C@@H](CC(N)=O)C(=O)N[C@@]1(C)CCCC=CCCC[C@@](C)(C(=O)N[C@@H](CC(C)C)C(=O)N[C@@H](C)C(=O)N[C@H](C(=O)N[C@@H](CCC(N)=O)C(=O)N[C@@H](C)C(=O)N[C@@H](CCC(N)=O)C(=O)N[C@@H](C)C(=O)N[C@@H](C)C(N)=O)C(C)C)NC(=O)[C@H](CC(C)C)NC(=O)[C@H](CC(C)C)NC(=O)[C@H]([C@@H](C)O)NC1=O)C(C)C` [SP791], the “increase in antiviral activity compared to SP-786” value is given as “five-fold increase” and it took 4.1 µM to reach a half-maximal effect (EC50).
With `CCCC[C@H](NC(C)=O)C(=O)N[C@@H](CC(=O)O)C(=O)N[C@H](C(=O)N[C@@H](CC(N)=O)C(=O)N[C@@]1(C)CCCC=CCCC[C@@](C)(C(=O)N[C@@H](CC(C)C)C(=O)N[C@@H](C)C(=O)N[C@H](C(=O)N[C@@H](CCC(N)=O)C(=O)N[C@@H](C)C(=O)N[C@@H](C)C(=O)N[C@@H](C)C(=O)N[C@@H](C)C(N)=O)C(C)C)NC(=O)[C@H](CC(C)C)NC(=O)[C@H](CC(C)C)NC(=O)[C@H]([C@@H](C)O)NC1=O)C(C)C` [SP794], the “increase in antiviral activity compared to SP-786” value is listed as “five-fold increase” and the 50% effective concentration (EC50) came to 6.1 µM.
